Compound potency records, mixed from different reports. Data source: NIAID ChemDB in PubChem.

Common to all: target-level tests; agent: Human cytomegalovirus; protein: Polymerase; measure: IC50

ICn: concentration for n% inhibition.

O=C(Nc1nnc(NC2CCN(Cc3ccccc3)CC2)s1)c1ccc(I)cc1 ; result: >25 µM
CN(C)n1cc(C(=O)NCc2ccc(Cl)cc2)c(=O)c2cc(C#CCO)ccc21 ; result: 2.3 µM
O=C(NCc1ccc(Cl)cc1)c1c[nH]c2ccc(C#CCO)cc2c1=O ; result: 0.96 µM
O=C(NCc1ccccc1)c1cn(N2CCOCC2)c2ccc(CN3CCOCC3)cc2c1=O ; result: >20 µM
N/C(=N/OC(=O)c1cccc2ccccc12)c1ccc(Cl)cc1 ; method: scintillation proximity / radiometric ; result: 50 µM
CN(Cc1cc2c3c(c1)c(=O)c(C(=O)NCc1ccc(Cl)cc1)cn3CC(=O)N2C)C[C@@H](O)c1cnccn1 ; result: 0.14 µM
COc1ccccc1/C(N)=N\OC(=O)c1cccc2ccccc12 ; method: scintillation proximity / radiometric ; result: >100 µM
CN(Cc1cc2c3c(c1)c(=O)c(C(=O)NCc1ccc(Cl)cc1)cn3CC(=O)N2C)C[C@@H](O)c1ccccc1 ; result: 0.082 µM
CN(CCS(=O)(=O)[O-])C(=O)CCCCCCC(=O)OCC#Cc1ccc2c(c1)c(=O)c(C(=O)NCc1ccc(Cl)cc1)cn2C1CC1 ; result: >20 µM
COc1ccc(C(=O)O/N=C(\N)c2ccc(Cl)cc2Cl)cc1 ; method: scintillation proximity / radiometric ; result: >100 µM
O=C(/C=C/c1ccccc1)Nc1nnc(NCC2CCCCC2)s1 ; result: >25 µM
Cn1cc(C(=O)NCc2ccc(Cl)cc2)c(=O)c2cc(CN3CCOCC3)ccc21 ; result: 0.69 µM
O=C(NCc1ccc(Cl)cc1)c1cn(N2CCCCC2)c2ccc(C#CCO)cc2c1=O ; result: 3.2 µM
N/C(=N/OC(=O)c1cccc2ccccc12)c1c(Cl)cccc1Cl ; method: scintillation proximity / radiometric ; result: 59.6 µM
COC(=O)c1ccc2[nH]nc(C(=O)NCc3ccc(Cl)cc3)c(=O)c2c1 ; result: 50 µM
CN(Cc1cc2c3c(c1)c(=O)c(C(=O)NCc1ccc(Cl)cc1)cn3CC(=O)N2C)C[C@@H](O)c1cccnc1 ; result: 0.113 µM
O=C(Nc1nnc(NCC(c2ccccc2)c2ccccc2)s1)c1ccc(F)cc1F ; result: >25 µM
CCS(=O)(=O)CCCn1cc(C(=O)NCc2ccc(Cl)cc2)c(=O)c2cc(CN3CCOCC3)ccc21 ; result: 0.9 µM
O=C(NCc1ccc(Cl)cc1)c1c[nH]c2c(F)cc(CCCCO)cc2c1=O ; result: 0.16 µM
CCOc1ccc2ccccc2c1C(=O)Nc1nnc(NC2CCC2)s1 ; result: >25 µM
O=C(NCc1ccc(Cl)cc1)c1c[nH]c2c(F)cc(-c3ccco3)cc2c1=O ; result: >50 µM
O=C(NCc1ccc(Cl)cc1)c1n[nH]c2ccccc2c1=O ; result: 90 µM
CN1CCN(n2cc(C(=O)NCc3ccc(Cl)cc3)c(=O)c3cc(CN4CCOCC4)ccc32)CC1 ; result: 0.73 µM
O=C(NCc1ccc(Cl)cc1)c1c[nH]c2c(F)cc(C#CCO)cc2c1=O ; result: 0.89 µM

For reference, 4 entries again:

compound	method	result
CN1CCN(n2cc(C(=O)NCc3ccc(Cl)cc3)c(=O)c3cc(CN4CCOCC4)ccc32)CC1		0.73 µM
COC(=O)c1ccc2[nH]nc(C(=O)NCc3ccc(Cl)cc3)c(=O)c2c1		50 µM
N/C(=N/OC(=O)c1cccc2ccccc12)c1ccc(Cl)cc1	scintillation proximity / radiometric	50 µM
O=C(NCc1ccc(Cl)cc1)c1c[nH]c2c(F)cc(-c3ccco3)cc2c1=O		>50 µM

Rows are shuffled and stem from different studies. Blank or dashed fields: not listed here.